Experimental findings from US20250283886A1 are described below.

In experiment [1] the target is … peptide containing N-terminal phenylalanine. The experiment can be described thus: single-molecule recognition of immobilized peptide, 500 nM of each binder.
For experiment [2] the target is unchanged. The experiment can be described thus: table of pulse statistics of the single-molecule recognition experiment.
Experiment [3] concerns the target T1, … after VPr has further cut W and two alanine residues (N-terminal F). The experiment can be described thus: pulse duration histogram of interval F of sequencing run 1 (with VPr), n=61.
Experiment [4] addresses T2, … after VPr has cut Y and two alanine residues (N-terminal W). The experiment can be described thus: pulse duration histogram of interval W of sequencing run 1 (with VPr), n=323.
The target in experiment [5] is polypeptide of sequence …. In words: pulse duration histogram of interval Y of sequencing run 1 (with VPr), n=538.
Experiment [6] concerns the target T1, … after VPr has further cut W and two …. The experiment can be described thus: pulse duration histogram of interval F of sequencing run 2 (with VPr), n=121.
Experiment [7] addresses T2, … after VPr has cut Y and two alanine …. In words: pulse duration histogram of interval W of sequencing run 2 (with VPr), n=265.
The target of experiment [8] is polypeptide of sequence …. In words: pulse duration histogram of interval Y of sequencing run 2 (with VPr), n=391.

B1: at ClpS2-V1 (Agrobacterium tumifaciens ClpS2 variant 1) labeled with Cy3B (protein)
chain: MSDSPVDLKPKPKVKPKLERPKLYKVMLLNDDYTPMSFVTVVLKAVFRMSEDTGRRVMMTAHRFGSAVVVVCERDIAETKAKEATDLGKEAGFPLMFTTEPEE
In experiment [1], B1 had a mean pulse duration of 1 s and a pulse rate of 14.1 pulses/min. In experiment [2], this molecule came in with a N pulses of 169 and a median pulse width of 0.35 s.

B2: ATTO 542-labeled A. Tumefaciens ClpS2-V1, Q8UD95 1-103 (protein)
chain: MSDSPVDLKPKPKVKPKLERPKLYKVMLLNDDYTPMSFVTVVLKAVFRMSEDTGRRVMMTAHRFGSAVVVVCERDIAETKAKEATDLGKEAGFPLMFTTEPEE
On to B2, for which the pulse duration M was determined as 1.65 s in experiment [3]; 0.09 s in experiment [4]; 0.26 s in experiment [5]; 0.96 s in experiment [6]; 0.09 s in experiment [7]; 0.52 s in experiment [8]. Further, the pulse duration Mo turned out to be 1.94 s in experiment [3]; 0.04 s in experiment [4]; 0.04 s in experiment [5]; 0.11 s in experiment [6]; 0.04 s in experiment [7]; 0.24 s in experiment [8]. For the same molecule, the pulse duration µ amounted to 1.81 s in experiment [3]; 0.11 s in experiment [4]; 0.38 s in experiment [5]; 1.17 s in experiment [6]; 0.12 s in experiment [7]; 0.74 s in experiment [8].
